Article PMC5507929, “Structural and Biochemical Characterization of Apicomplexan Inorganic Pyrophosphatases” (Scientific Reports, 2017)

Test system: O=P(O)(O)OP(=O)(O)O
Experiment: purified protein
Settings: pH 7.2, 37 °C, 100 mM NaCl, 1.4 nM enzyme, metal not stated for the table (3 mM Mg2+ for wild type)

Row | Substance | Km | kcat | kcat/Km
1 | PfPPase (Plasmodium falciparum 3D7; D198N) | 42.6 ± 2.1 µM | – | –
2 | PfPPase (Plasmodium falciparum 3D7; K136R) | 402.8 ± 16.4 µM | 21.8 s⁻¹ | 53000 M⁻¹ s⁻¹
3 | PfPPase (Plasmodium falciparum 3D7; D235N) | 45.7 ± 2.1 µM | 52.5 s⁻¹ | 1.16e+06 M⁻¹ s⁻¹
4 | PfPPase (Plasmodium falciparum 3D7; R158K) | 64.2 ± 3.2 µM | 60.4 s⁻¹ | 940000 M⁻¹ s⁻¹
5 | PfPPase (Plasmodium falciparum 3D7; D203N) | 53.8 ± 8.3 µM | 0.53 s⁻¹ | 9850 M⁻¹ s⁻¹
